# Share of PSTVd loop 1 variants by leaf site

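A pool of all variants was put on leaves of three Nicotiana benthamiana plants. Progeny were sequenced from the inoculated region (day 5), the margin of the inoculated leaf (day 10) and systemic leaves (day 12).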

Region: loop 1 of PSTVd (intermediate strain), 5' to 3', with the closing base pair. Wild type: CCUCGG. Varied positions (N): CNNNNG.

Values are reads per thousand in the sample; higher means more abundant, 0 means not found. Each site shows the three plants. "Pool" is the share in the plasmid pool used as inoculum, on the same scale. The inoculated region was read from the minus strand, the other sites from the plus strand. IR is the inoculated region, LM the leaf margin, Sys the systemic leaves. Sequences that differ at fixed positions probably stem from PCR or sequencing errors, and defective variants can be carried along by functional ones. With 32,791-60,834 reads a sample, very low values are single reads. For reference, wild type rose from 20.1 per thousand in the pool to 197, 219, 222 (inoculated region), 828, 823, 779 (leaf margin) and 914, 907, 857 (systemic leaves).

| sequence | pool | IR | LM | Sys |
|---|---|---|---|---|
| CGUCGG | 4.43 | 24.2 / 20.7 / 11.3 | 16.9 / 14.3 / 8.54 | 8.45 / 7.80 / 32.6 |
| CGUCUG | 3.25 | 2.90 / 2.94 / 2.75 | 0 / 0 / 0 | 0 / 0 / 0 |
| CGUGAG | 3.88 | 3.06 / 2.66 / 2.30 | 0 / 0 / 0 | 0 / 0 / 0 |
| CGUGCG | 4.07 | 3.01 / 2.38 / 2.59 | 0 / 0 / 0 | 0 / 0 / 0.0329 |
| CGUGGG | 3.93 | 2.93 / 2.62 / 2.63 | 0 / 0.0211 / 0.0305 | 0 / 0 / 0.0493 |
| CGUGUG | 4.14 | 3.38 / 2.64 / 2.66 | 0 / 0 / 0 | 0 / 0 / 0.0164 |
| CGUUAG | 5.26 | 2.73 / 3.17 / 2.61 | 0.0199 / 0 / 0 | 0 / 0 / 0.148 |
| CGUUCG | 4.15 | 2.86 / 2.98 / 2.64 | 0 / 0 / 0.0305 | 0 / 0 / 0 |
| CGUUGG | 3.73 | 3.01 / 2.64 / 2.75 | 0 / 0.0211 / 0 | 0 / 0 / 0.0329 |
| CGUUUG | 4.09 | 2.88 / 2.62 / 2.48 | 0 / 0.0211 / 0 | 0 / 0 / 0 |
| CUAAAG | 4.18 | 2.82 / 2.74 / 2.91 | 0 / 0.0211 / 0.0305 | 0 / 0 / 0.0493 |
| CUAACG | 3.34 | 3.47 / 2.49 / 2.54 | 0 / 0.0211 / 0.0305 | 0 / 0 / 0 |
| CUAAGG | 3.06 | 3.17 / 3.02 / 2.73 | 0 / 0 / 0.0305 | 0 / 0 / 0 |
| CUAAUG | 3.88 | 2.97 / 3.06 / 2.63 | 0 / 0 / 0.0305 | 0 / 0 / 0 |
| CUACAG | 4.06 | 3.01 / 2.64 / 3.30 | 0.0199 / 0 / 0.0305 | 0 / 0 / 0.0493 |
| CUACCG | 3.53 | 2.77 / 2.23 / 2.64 | 0.0199 / 0 / 0 | 0 / 0 / 0 |
| CUACGG | 3.22 | 3.23 / 2.08 / 2.23 | 0.0199 / 0 / 0.0305 | 0 / 0 / 0 |
| CUACUG | 3.15 | 2.82 / 2.68 / 2.50 | 0 / 0 / 0 | 0 / 0 / 0 |
| CUAGAG | 3.48 | 2.84 / 2.87 / 2.61 | 0 / 0.0423 / 0.0305 | 0 / 0 / 0 |
| CUAGCG | 3.85 | 3.40 / 3.06 / 2.84 | 0 / 0 / 0 | 0 / 0 / 0 |
| CUAGGG | 3.27 | 2.69 / 2.74 / 2.27 | 0 / 0 / 0 | 0 / 0 / 0 |
| CUAGUG | 3.60 | 2.84 / 2.74 / 2.93 | 0 / 0 / 0 | 0 / 0 / 0 |
| CUAUAG | 3.73 | 3.08 / 3.07 / 2.45 | 0 / 0.0211 / 0 | 0 / 0 / 0.0164 |
| CUAUCG | 3.92 | 2.56 / 2.74 / 2.47 | 0 / 0 / 3.87 | 0 / 0 / 1.30 |
| CUAUGG | 4.45 | 2.84 / 2.96 / 2.30 | 0.0199 / 0 / 0 | 0 / 0 / 0.0658 |
| CUAUUG | 5.05 | 3.03 / 2.55 / 3.05 | 0 / 0 / 0 | 0 / 0 / 0.115 |
| CUCAAG | 3.47 | 3.04 / 2.74 / 2.84 | 0 / 0.0211 / 0 | 0 / 0.0180 / 0.0329 |
| CUCACG | 3.69 | 3.01 / 2.34 / 2.27 | 0 / 0.0211 / 0 | 0 / 0 / 0 |
| CUCAGG | 3.39 | 3.19 / 2.96 / 2.55 | 0 / 0 / 0 | 0 / 0 / 0 |
| CUCAUG | 4.77 | 3.14 / 2.62 / 2.86 | 0 / 0.0211 / 0 | 0 / 0 / 0 |
| CUCCAG | 3.82 | 2.99 / 2.89 / 2.45 | 0 / 0 / 0 | 0 / 0 / 0.0164 |
| CUCCCG | 3.64 | 2.95 / 2.74 / 2.45 | 0 / 0 / 0 | 0 / 0 / 0 |
| CUCCGG | 4.22 | 3.14 / 2.57 / 3.02 | 0 / 0 / 0.0610 | 0 / 0 / 0.0493 |
| CUCCUG | 4.55 | 2.60 / 2.74 / 2.86 | 0 / 0.0423 / 0 | 0 / 0.0359 / 0.0164 |
| CUCGAG | 3.39 | 3.03 / 2.96 / 2.72 | 0 / 0 / 0 | 0 / 0 / 0 |
| CUCGCG | 5.11 | 2.97 / 2.83 / 2.32 | 0 / 0 / 0.0305 | 0 / 0 / 0.0658 |
| CUCGGA | 0.0131 | 0.0369 / 0.0187 / 0.0179 | 0 / 0 / 0 | 0 / 0.0180 / 0.0164 |
| CUCGGG | 3.89 | 3.49 / 6.81 / 3.25 | 0 / 0.0211 / 0 | 0 / 0.0180 / 0.0164 |
| CUCGUG | 3.80 | 2.73 / 3.41 / 2.72 | 0 / 0 / 0 | 0 / 0 / 0.0822 |
| CUCUAG | 4.57 | 3.10 / 2.85 / 2.97 | 0.0199 / 0 / 0 | 0.0203 / 0 / 0.0493 |
| CUCUCG | 3.71 | 3.14 / 2.55 / 2.45 | 0 / 0 / 0 | 0 / 0 / 0 |
| CUCUGG | 3.61 | 3.04 / 2.81 / 2.73 | 0.0199 / 0 / 0 | 0 / 0 / 0 |
| CUCUUG | 4.02 | 2.82 / 2.83 / 2.93 | 0.0199 / 0 / 0.0305 | 0 / 0 / 0.0329 |
| CUGAAG | 3.98 | 3.49 / 2.96 / 2.55 | 0 / 0 / 0.0305 | 0 / 0.0180 / 0.0164 |
| CUGACG | 3.26 | 3.14 / 2.57 / 2.55 | 0.0199 / 0 / 0 | 0 / 0 / 0 |
| CUGAGG | 3.47 | 2.62 / 2.83 / 2.68 | 0 / 0.0211 / 0 | 0 / 0 / 0 |
| CUGAUG | 4.11 | 2.42 / 2.85 / 3.00 | 0 / 0 / 0 | 0 / 0 / 0.0164 |
| CUGCAG | 3.01 | 2.68 / 3.00 / 2.68 | 0.0199 / 0 / 0 | 0 / 0 / 0 |
| CUGCCG | 3.34 | 3.34 / 0 / 2.55 | 0 / 0 / 0 | 0 / 0 / 0 |
| CUGCGG | 4.41 | 2.80 / 3.04 / 2.66 | 0 / 0 / 0 | 0 / 0 / 0 |
| CUGCUG | 4.07 | 2.69 / 2.66 / 2.55 | 0 / 0.0211 / 0.0305 | 0.0203 / 0 / 0.0164 |
| CUGGAG | 3.92 | 2.73 / 2.49 / 2.27 | 0.0398 / 0.0211 / 0 | 0 / 0 / 0 |
| CUGGCA | 0.0131 | 0 / 0 / 0 | 0 / 0 / 3.78 | 0 / 0 / 1.27 |
| CUGGCG | 4.45 | 2.97 / 3.06 / 2.63 | 0 / 0 / 0 | 0.0203 / 0 / 0.0329 |
| CUGGGG | 5.10 | 3.04 / 3.06 / 2.86 | 0 / 0 / 0 | 0 / 0.0180 / 0.0986 |
| CUGGUG | 4.13 | 2.97 / 2.55 / 2.89 | 0 / 0 / 0 | 0.0203 / 0 / 0 |
| CUGUAG | 3.56 | 2.82 / 2.70 / 3.13 | 16.2 / 7.31 / 4.64 | 0 / 0 / 0 |
| CUGUCG | 4.16 | 3.12 / 2.87 / 2.68 | 0 / 0.0211 / 0.0610 | 0 / 0 / 0.0164 |
| CUGUGG | 3.30 | 3.16 / 3.00 / 2.32 | 0 / 0 / 0 | 0 / 0 / 0 |
| CUGUUG | 3.78 | 2.86 / 2.85 / 2.79 | 0 / 0 / 0 | 0 / 0 / 0 |
| CUUAAG | 3.06 | 2.86 / 2.94 / 2.80 | 0 / 0.0211 / 0 | 0 / 0 / 0 |
| CUUACG | 3.76 | 2.99 / 2.79 / 2.77 | 0 / 0 / 0 | 0 / 0 / 0.0329 |
| CUUAGG | 3.44 | 3.04 / 2.74 / 2.59 | 0.0398 / 0 / 0 | 0 / 0 / 0 |
| CUUAUG | 3.74 | 3.47 / 3.15 / 2.75 | 0.0199 / 0 / 0 | 0 / 0 / 0.0329 |
| CUUCAG | 3.71 | 3.27 / 2.83 / 2.84 | 0 / 0 / 0 | 0 / 0 / 0 |

Excerpt, the final 5 entries:

- CUUAAG (pool 3.06): IR 2.86 / 2.94 / 2.80; LM 0 / 0.0211 / 0; Sys 0 / 0 / 0
- CUUACG (pool 3.76): IR 2.99 / 2.79 / 2.77; LM 0 / 0 / 0; Sys 0 / 0 / 0.0329
- CUUAGG (pool 3.44): IR 3.04 / 2.74 / 2.59; LM 0.0398 / 0 / 0; Sys 0 / 0 / 0
- CUUAUG (pool 3.74): IR 3.47 / 3.15 / 2.75; LM 0.0199 / 0 / 0; Sys 0 / 0 / 0.0329
- CUUCAG (pool 3.71): IR 3.27 / 2.83 / 2.84; LM 0 / 0 / 0; Sys 0 / 0 / 0

Values reported by Wu et al. 2024 (doi:10.1371/journal.ppat.1012142).